Earlier results as cited in patent publication US8536319B2, “Compounds and methods for detecting ricin and uses thereof” (dated 2013).

Molecular target: ricin toxin A-chain (RTA) (Ricinus communis, UniProt P02879)

5′-CGCGCGAGAGCGCG-3′
kcat for the depurination (RTA, GAGA tetraloop site, pH 4.0): 3.65 ± 0.233 s⁻¹ | Km (read-out: Km for its binding, RTA, pH 4.0): 8.1 µM

5′-CGCGCGdAGAGCGCG-3′
rate as substrate of RTA: 1200 min⁻¹
